PubChem BioAssay AID1224833 – University of Georgia – 2016
Test: 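Host factors restraining rotavirus as candidate antiviral genes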 (primary screen). System: monkey MA104 kidney cells. Knock-down reagent: siRNA pool against human genes, 50 nM. Duration: 48 h knock-down before infection; read 24 h after infection. Challenge: infection with rotavirus strain RV3 two days after transfection; infectious dose for this stage not given. Measured: 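z-score of rotavirus antigen signal per well, from a fluorescent immunoassay, relative to non-targeting control wells on the same plate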. Scale: z-score vs non-targeting control: higher = more rotavirus replication than with non-targeting control. Call rule: In these data the active calls have z-score vs non-targeting control at about -1 or lower, or at about 1 or higher. Meaning of the calls: active = z-score beyond 1 either way; inactive = z-score within 1 of zero.
The deposit covers about 12,000 reagents; this is a part drawn at random. About 5,600 of all reagents (46%) were called active. 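Active calls cover z-scores past 1 in both directions, so they include lowered as well as raised rotavirus replication.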 Unmarked entries are inactive. Reagent sequences are not shown.

| gene | z-score vs non-targeting control |
| --- | --- |
| CNIH1 | 0.158 |
| CERS6 | 1.56 (active) |
| CCL27 | 1.36 (active) |
| OR1J4 | -0.705 |
| OGT | 1.16 (active) |
| ARHGEF26 | 1.78 (active) |
| SPINK1 | -1.63 (active) |
| AKAP17A | 0.375 |
| CARD16 | 1.04 (active) |
| PLAGL1 | -1.15 (active) |
| HPCA | -1.48 (active) |
| ARHGAP32 | -0.228 |
| GHRL | -1.58 (active) |
| CIP2A | 1.85 (active) |
| RSRC2 | 0.642 |
| DCAF8 | 0.944 |
| ARID4A | 0.909 |
| AQP11 | -0.486 |
| CT45A3 | 0.014 |
| GATD3 | -0.584 |
| TTLL5 | 0.571 |
| EMC2 | 1.43 (active) |
| UNC93B1 | -2.13 (active) |
| FOXD4L6 | 1.92 (active) |
| MEMO1 | -1.13 (active) |
| FBN2 | 0.432 |
| SYT17 | -1.61 (active) |
| HNRNPA0 | 0.632 |
| EVI5 | 1.77 (active) |
| SLC39A6 | -1.33 (active) |
| MED7 | -1.28 (active) |
| SMC5 | 0.393 |
| H4C7 | -1.82 (active) |
| NR1H2 | -1.25 (active) |
| NOL12 | 2.36 (active) |
| UBTF | -2.48 (active) |
| PICALM | -0.493 |
| TMEM127 | -0.942 |
| IFNA6 | -0.0157 |
| AMER2 | -1.08 (active) |
| RPSA | -1.83 (active) |
| CCKAR | -1.21 (active) |
| ANKRD29 | -0.351 |
| MEAF6 | -1.2 (active) |
| KIF16B | -2.34 (active) |
| TRUB1 | -1.09 (active) |
| ADAMDEC1 | -0.517 |
| FTHL17 | -1.69 (active) |
| CA11 | -0.677 |
| TAS2R41 | -0.45 |
| CLNK | -1.11 (active) |
| RIT1 | -2.1 (active) |
| TEX13B | -1.68 (active) |
| PARG | -0.765 |
| PLP2 | -1.94 (active) |
| PRAMEF9 | -0.0836 |
| POGK | 1.14 (active) |
| SYNE2 | -0.675 |
| SLC38A9 | -0.489 |
| KLK15 | 1.87 (active) |
| SLC22A9 | -2.26 (active) |
| CPQ | 0.711 |
| VWA1 | -0.343 |
| TMPRSS11B | -0.8 |
| ILDR1 | 0.294 |
| GON4L | -1.97 (active) |
| PLAAT2 | -0.849 |
| ERCC4 | 1.15 (active) |
| CDRT4 | -1.19 (active) |
| PRSS1 | 1.45 (active) |
| XYLT1 | -1.19 (active) |
| NEDD9 | -1.67 (active) |
| AMY1C | -0.0312 |
| C22orf15 | -0.571 |
| XKR8 | 2.71 (active) |
| NARF | -1.12 (active) |

Next part (18 carried over from the part before).
| gene | z-score vs non-targeting control |
| --- | --- |
| SLC38A9 | -0.489 |
| KLK15 | 1.87 (active) |
| SLC22A9 | -2.26 (active) |
| CPQ | 0.711 |
| VWA1 | -0.343 |
| TMPRSS11B | -0.8 |
| ILDR1 | 0.294 |
| GON4L | -1.97 (active) |
| PLAAT2 | -0.849 |
| ERCC4 | 1.15 (active) |
| CDRT4 | -1.19 (active) |
| PRSS1 | 1.45 (active) |
| XYLT1 | -1.19 (active) |
| NEDD9 | -1.67 (active) |
| AMY1C | -0.0312 |
| C22orf15 | -0.571 |
| XKR8 | 2.71 (active) |
| NARF | -1.12 (active) |
| MAP1LC3B | 0.38 |
| CD276 | 0.542 |
| CLTA | -1.72 (active) |
| UBL7 | -0.336 |
| RABL2B | 0.88 |
| SLC25A52 | 0.405 |
| TMEM177 | -1.63 (active) |
| DDX53 | -0.128 |
| TBC1D10C | -0.0407 |
| IPO7 | -2.03 (active) |
| OLR1 | 0.679 |
| RPL5 | 0.704 |
| DNTTIP2 | 0.151 |
| PDPR | -0.81 |
| CXCR2 | 0.848 |
| CCDC186 | 0.222 |
| MPC1 | -0.918 |
| ROBO3 | 0.783 |
| CD200R1L | 0.737 |
| GARIN6 | 2.45 (active) |
| AOX1 | 0.654 |
| VPS52 | 0.305 |
| PRLHR | -1.02 (active) |
| TOR1AIP2 | 1.01 (active) |
| HP1BP3 | -0.404 |
| B3GALNT1 | 1.5 (active) |
| AMZ1 | 1.09 (active) |
| TMEM63C | 1.73 (active) |
| TGFB1 | -0.739 |
| ZC3H6 | -1.31 (active) |
| FAAH | -1.07 (active) |
| CENPO | 0.539 |
| ATP5F1A | 2.23 (active) |
| OTOA | -0.555 |
| RGCC | 1.1 (active) |
| BHLHE40 | 0.692 |
| SMARCE1 | -0.666 |
| CPLX2 | -0.46 |
| C2CD2L | 0.228 |
| TXLNA | 1.1 (active) |
| CARHSP1 | 0.0323 |
| RAB28 | 1.35 (active) |
| ASXL1 | 0.705 |
| BRF1 | -0.952 |
| AKNA | -2.15 (active) |
| TBC1D9B | 1.02 (active) |
| PLA2G15 | 0.621 |
| KCTD16 | -2.55 (active) |
| ITLN1 | -0.759 |
| OR5AK2 | 2.23 (active) |
| MID1IP1 | 1.77 (active) |
| SLC25A30 | -2.6 (active) |
| SNX27 | 2.17 (active) |
| NFIC | -1.45 (active) |
| SAYSD1 | -0.248 |
| MGAT1 | 2.04 (active) |
| RCVRN | -2.33 (active) |
| METAP1 | 0.953 |
| SLC38A4 | -0.715 |
| SMARCD3 | 2.43 (active) |
| NELFB | -1.42 (active) |
| EPSTI1 | -1.15 (active) |
| EMILIN2 | -1.62 (active) |
| VWA7 | 1.2 (active) |
